The target of the series is CRP (cAMP receptor protein) (UniProt O34015). In words: EMSA. To be noted: 0.2 mM cAMP, CRP 0, 0.35-4.2 uM, herring sperm DNA 12.5 ug/ml; recombinant protein; label: 32P end label (T4 PNK); probe letters rebuilt from the primers and the genome. Background: A gel shift assay detects complexes by their altered migration in electrophoresis.

For at least one entry, the source does not settle the construct or the ends of the probe.

Turning to “GCCCGAAGCTTCATGTTCGAATCCTTTAGTGGTAAAAAAGTAAACGGTTGCGTAAACGATTGGCGGCGATTATAGAGTTATCAAAAAACAAATTCCAGACACAATTCTGACTGTACGCGGGTTTTCTAACCAAAAAGGGAATCTGTCGATCAGAAGATAAGTCAATTGCTCAATACCAACAGAATGTTGCGATCAAGTTCGAATAGGGAAGATTTTTTGAGGATAAAAAAACGCCACCTCAAGTGAGATGGCGGTGAATCATATCGACCAAATTTGGTCGTCAATAAATTCCAATTTAGGGGTGAACAAAACTTGTTCGAGACGCAAAAGTTGCGTATCAGTAGCCGAAGCTACGAGGGTATGCAAAGTTACCGGTGTACATAGAGTGTTGGTTCCAGAACATTGCAGACGATAAACCTTTATTCATAACTATCACCATTAAAATCAAAACTGTTTACTTGATTTCTCGGTTCCATGGAGGCGATAAATCGGACTCATCCTTTGAGCGTTTTCTCTTCGCTAGCGAAGCTGTACACAAATATACCACCAAGAAATTAAATTACAACACTTAAGGTGATTAAAATCACAAAAATCATTTAAATTGATCTTTGTCAGCATTTTTTAGTAATTTAATTACAACTTTATTAAGAAAAATTACAGTTAAAGTGCATGAAGATGCATTTGCCTACCTCAGTCACGTTACGTCTTCTTATCATTCCTGACGCTAGCCGATGATCAAAACCCGTTTTCCTGCCACTTTTGACCTACACCCTGCCCCTGCACAGTGATATGCTGTGCAACGAAAGTACCTACCTGTTACAGGCAAATTCTCTGCCACGACCCAGCTCTGGAGAGAGGATACACGGGAAAAATTACAGTAAGGAGTCATCTGTGGAATTCGCAGCC (double strand) [vcdRP promoter fragment]”, the binding result is “binds”.

The values above are taken from publication PMC8672173.
